Test: Sensory effect of flavouring agents in still water with GRA and cherry flavouring
Details: citric acid, 200 mg/kg GRA (Ex. 1), 0.1 g/100 g cherry flavouring
[1] = dose 10 mg/kg added to still water with sweeteners

Row | Compound | Sensory effect compared to basis [1] | other results
1 | COc1cc(C(=O)O)ccc1O [Vanillic acid] |  | Sensory effect compared to basis (dose 100 mg/kg added to still water with sweeteners): More balanced, less sour
2 | CCCCC/C=C/C=C/C(=O)NCC(C)C [Pellitorin] | More intensive cherry | 
3 | COc1cc(C[C@H]2COC(=O)[C@@H]2Cc2ccc(O)c(OC)c2)ccc1O [Matairesinol] | More fresh, more citric, less lingering | 
4 | COc1ccc([C@@H]2CC(=O)c3c(O)cc(O)cc3O2)cc1O [Hesperitin] |  | Sensory effect compared to basis (dose 25 mg/kg added to still water with sweeteners): Stronger like juicy cherry
